Assay results taken from paper PMC10572428, “Possibility of Using Different Calcium Compounds for the Manufacture of Fresh Acid Rennet Cheese from Goat’s Milk” (Foods, 2023).

Experiments:
Set-up in all cases: species or system goat
[1] = Cheese yield; details: 20 mg Ca 100 g^−1 milk
[2] = Protein retention in cheese; details: 20 mg Ca 100 g^−1 of milk
[3] = Concentrations of macro- and micro-elements in cheese (ICP-OES); details: for increase in calcium content of cheese compared to the control: 20 mg Ca 100 g^−1 of milk

| SMILES | increase in cheese yield compared to the control [1] | reduction of protein retention compared to the control cheese [2] | increase in phosphorus content of cheese compared to the control cheese ([3]; highest level) | increase in calcium content of cheese compared to the control [3] |
| --- | --- | --- | --- | --- |
| O=C([O-])[C@H](O)[C@@H](O)[C@H](O)[C@H](O)CO.O=C([O-])[C@H](O)[C@@H](O)[C@H](O)[C@H](O)CO.[Ca+2] [Gluconate, calcium gluconate] | 4.04% | 7.66% | 31.53 mg | – |
| O=C([O-])[O-].[Ca+2] [Carbonate, calcium carbonate] | – | – | – | 15.06 mg |
| CC(O)C(=O)[O-].CC(O)C(=O)[O-].[Ca+2] (stereo not drawn) [Lactate, calcium lactate] | – | – | – | 20.81 mg |
| [Ca+2].[Cl-].[Cl-] [Chloride, Calcium chloride, reference compound] | 2.55% | – | – | – |
